Anti-infective test results gathered from many reports (values: NIAID ChemDB through PubChem).

Common to all: tests in culture

An empty or dashed field is not shown. Conditions beyond the fields shown may differ between rows. ECn is the concentration giving n% inhibition of infection, replication or growth. Inhibition is in % at the dose shown (toxicity tests: loss of growth or viability).

{"smiles": "CCC(CC)[C@H](NC(C)=O)[C@@H]1[C@H](O)[C@@H](C(=O)O)C[C@H]1N=C(N)N", "measure": "EC50", "species": "Influenza A virus", "cells": "MDCK", "strain or isolate": "H5N1 A/gull/PA/4175/83", "result": "0.02 µM"}
{"smiles": "CCCCCCCCCCOc1ccc(/C(C)=N/N=C(/N)SC)cc1", "measure": "EC50", "species": "Influenza A (H3N2)", "cells": "Chorioallantoic membrane", "strain or isolate": "A2/ADACHI", "result": "200 µg/mL"}
{"smiles": "CC1(CO)CCC(Cn2nnc3c(N)nc(N)nc32)C1(C)C", "measure": "EC50", "species": "Influenza A virus (H2N2)", "cells": "MDCK", "strain or isolate": "JAPAN/305/57", "result": ">50 µg/mL"}
{"smiles": "CC(=O)N[C@H]1[C@H]([C@H](O)[C@H](O)CO)OC(C(=O)O)=C[C@@H]1N=C(N)N", "measure": "EC50", "species": "Influenza A virus", "cells": "MDCK", "strain or isolate": "H5N1 A/gull/PA/4175/83", "result": "0.22 µM"}
{"smiles": "COc1ccc2cc1Oc1ccc(cc1)CC1c3cc(c(OC)cc3CCN1C)Oc1c(OC)c(OC)c(OC)c3c1C(C2)N(C)CC3", "measure": "EC50", "species": "Influenza A virus", "cells": "CEF", "strain or isolate": "A/Weybridge", "result": ">20 µM"}
{"smiles": "O=C(O)CCNS(=O)(=O)c1ccc2c(c1)Cc1ccccc1-2", "measure": "inhibition", "species": "Influenza A virus (H2N2)", "cells": "CEF", "strain or isolate": "A2/ADACHI", "dose": "31.7 µg/mL", "result": "0%"}
{"smiles": "CC1(CO)CCC(Cn2cnc3c(=O)[nH]c(N)nc32)C1(C)C", "measure": "EC50", "species": "Influenza A virus (H2N2)", "cells": "MDCK", "strain or isolate": "JAPAN/305/57", "result": ">50 µg/mL"}
{"smiles": "CC1(CO)CCC(Cn2ccc(=O)[nH]c2=O)C1(C)C", "measure": "EC50", "species": "Influenza A virus (H2N2)", "cells": "MDCK", "strain or isolate": "JAPAN/305/57", "result": ">100 µg/mL"}
{"smiles": "CCCC(CCC)C(NC(C)=O)C1C(N=C(N)N)CC(C(=O)O)C1O", "measure": "EC50", "species": "Influenza A virus", "cells": "MDCK", "strain or isolate": "H5N1 A/gull/PA/4175/83", "result": "0.02 µM"}
{"smiles": "CC(=O)N[C@H]1[C@H]([C@H](O)[C@H](O)CO)OC(C(=O)O)=C[C@@H]1N=C(N)N", "measure": "EC90", "species": "Influenza A virus", "cells": "MDCK", "strain or isolate": "H7N3 A/FPV/ENG/1/63", "result": "≥1 µM"}
{"smiles": "C#C[C@@H](O)C1=C[C@@H](n2cnc3c(N)ncnc32)[C@H](O)[C@@H]1O", "measure": "EC50", "species": "Influenza A virus", "cells": "MDCK", "strain or isolate": "H2N2 X31", "result": ">50 µg/mL"}
{"smiles": "CC1(CO)CCC(Cn2nnc3c(Cl)ncnc32)C1(C)C", "measure": "EC50", "species": "Influenza A virus (H2N2)", "cells": "MDCK", "strain or isolate": "JAPAN/305/57", "result": ">250 µg/mL"}
{"smiles": "CC[C@H](O)C1=C[C@@H](n2cnc3c(N)ncnc32)[C@H](O)[C@@H]1O", "measure": "EC50", "species": "Influenza A virus", "cells": "MDCK", "strain or isolate": "H2N2 X31", "result": ">250 µg/mL"}
{"smiles": "COc1ncnc2c1ncn2[C@@H]1O[C@H](CO)[C@@H](O)[C@@H]1O", "measure": "EC50", "species": "Influenza A virus (H1N9)", "strain or isolate": "NWS", "result": ">100 µM"}
{"smiles": "CC1(CO)CCC(Cn2cnc3c(N)nc(N)nc32)C1(C)C", "measure": "EC50", "species": "Influenza A virus (H2N2)", "cells": "MDCK", "strain or isolate": "JAPAN/305/57", "result": ">50 µg/mL"}
{"smiles": "CC[C@@H](O)C1=C[C@@H](n2cnc3c(N)ncnc32)[C@H](O)[C@@H]1O", "measure": "EC50", "species": "Influenza A virus", "cells": "MDCK", "strain or isolate": "H2N2 JAPAN 57", "result": ">250 µg/mL"}

Repeating the first 2 entries:

smiles | measure | species | cells | strain or isolate | dose | result
CCC(CC)[C@H](NC(C)=O)[C@@H]1[C@H](O)[C@@H](C(=O)O)C[C@H]1N=C(N)N | EC50 | Influenza A virus | MDCK | H5N1 A/gull/PA/4175/83 | - | 0.02 µM
CCCCCCCCCCOc1ccc(/C(C)=N/N=C(/N)SC)cc1 | EC50 | Influenza A (H3N2) | Chorioallantoic membrane | A2/ADACHI | - | 200 µg/mL